In PMC7542365 (mBio, 2020):

Target: A/Brevig Mission/1/1918 H1N1 NA, thrombin-digested (for crystals) (influenza A virus A/Brevig Mission/1/1918 (H1N1))
Assay: crystal structure

A/Brevig Mission/1/1918 H1N1 NA, thrombin-digested (for crystals) (domain or fragment)
stoichiometry N: 4
